Data from paper PMC10702856 (Antibody Therapeutics, 2023).

Key:
[1] = target: SARS-CoV-2 spike glycoprotein (SARS-CoV-2, Ancestral strain, UniProt P0DTC2)
[2] = target: T1, SARS-CoV-2 S receptor binding domain, Ancestral (SARS-CoV-2, Ancestral strain, UniProt P0DTC2, biotin (biotinylated RBD, for SPR)); experiment: ELISA; conditions: both partners purified
T1 construct: source: expressed and purified as described [52]

Binder | binding result [1] | binding result [2]
ADAH14 (VHH) VHH: QVQLQESGGGLVQAGGSLRLSCAASGSYFFHALMGWFRQAPVKEREFVASITAVPGATYYRRCTDSVKGRFTISRDNAKNTVYLQMNSLKPEDTAVYYCALATHSNRHTPITYWGQGTQVTVSS | binds | 
ADAH15 (VHH) VHH: QVQLQESGGGLVQAGGSLRLSCAASGTTYLAANMGWFRQAPGKEREFVAAITFFHNPTVYYADSVKGRFTISRDNAKNTVYLQMNSLKPEDTAVYYCAATVLVRDRIHFSHSIGIRYWGQGTQVTVSS | binds | 
ADAH11 nanobody (VHH, also called monomeric ADAH11; source: E. coli TG1, purified (Ni-NTA, SEC)) VHH: QVQLQESGGGLVQAGGSLRLSCAASGDSYTAYVMGWFRQAPGKEREFVASITPTNDNFSYYADSVKGRFTISRDNAKNTVYLQMNSLKPEDTAVYYCALATHSNRPTPITYWGQGTQVTVSS |  | binds
